Anti-infective test results gathered from many reports (values: NIAID ChemDB through PubChem).

All rows: tests in culture

ECn: concentration that inhibits the pathogen or its effect by n%. Blank or dashed fields: not listed here. Inhibition is in % at the dose shown (toxicity tests: loss of growth or viability). Conditions beyond the fields shown may differ between rows.

| smiles | strain | cells | species | endpoint | tested at | result |
|---|---|---|---|---|---|---|
| CC(=O)O[C@H]1C[C@H](n2cc(C)c(=O)[nH]c2=O)O[C@@H]1COS(=O)(=O)NC(=O)O[C@H]1O[C@H](COC(=O)c2ccccc2)[C@@H](OC(=O)c2ccccc2)[C@H](OC(=O)c2ccccc2)[C@H]1OC(=O)c1ccccc1 | - | VERO | African swine fever virus | EC50 | - | 10 µg/mL |
| COc1ccc(-c2ccc(C(Nc3ccccc3)N3c4ccccc4Sc4cc(O)c(CCC5(O)C=C(C)c6ccc(O)cc6N5)cc43)cc2)cc1 | P20778 | - | Japanese encephalitis virus | EC50 | - | 31.25 µg/mL |
| Brc1ccc(C2=Cc3cc(Br)ccc3OC2)cc1 | TYPE 2 | HEP-2 | Poliovirus | inhibition | 10 µM | 40% |
| CC(=O)N[C@H]1[C@H]([C@H](O)[C@H](O)CO)OC(C(=O)O)=C[C@@H]1N=C(N)N | H11N9 A/DK/MEM/546/74 | MDCK | Influenza A virus | inhibition | 0.08 µM | 90% |
| Nc1ccn(C[C@H]2COP(=O)(O)CO2)c(=O)n1 | Isolate Bangladesh | LLC-MK2 | Variola virus | EC50 | - | 20.3 µg/mL |
| O=C1c2ccccc2C(=O)N1Cc1cc2c(cc1O)Sc1ccccc1N2C(Nc1ccccc1)c1ccc(-c2ccccc2)cc1 | P20778 | - | Japanese encephalitis virus | EC50 | - | 7.8 µg/mL |
| O=c1cnn([C@@H]2O[C@H](COP(=O)(O)O)[C@@H](O)[C@H]2O)c(=O)[nH]1 | Trinidad donkey | VERO | Venezuelan equine encephalitis virus | EC50 | - | 3.9 µg/mL |
| CC(=O)c1cccc(Oc2ccccc2)c1 | TYPE 3 | BSC-1 | Poliovirus | inhibition | 10 µg/mL | 100% |
| CC(=O)O[C@H]1C[C@H](n2ccc(=O)[nH]c2=O)O[C@@H]1COS(=O)(=O)NC(=O)O[C@H]1O[C@H](COC(=O)c2ccccc2)[C@@H](OC(=O)c2ccccc2)[C@H](OC(=O)c2ccccc2)[C@H]1OC(=O)c1ccccc1 | - | VERO | African swine fever virus | EC50 | - | 50 µg/mL |
| CC1(C)OC2C(O1)[C@@H](COS(=O)(=O)NC(=O)OC1O[C@H](COCc3ccccc3)[C@@H](OCc3ccccc3)[C@H](OCc3ccccc3)[C@H]1OCc1ccccc1)O[C@H]2n1ncc(=O)[nH]c1=O | Nakayama | VERO | Japanese encephalitis virus | EC50 | - | 60.4 µg/mL |
| CC(C)OC1[C@H](n2ccc(=O)[nH]c2=O)O[C@H](COS(=O)(=O)NC(=O)N[C@@H]2O[C@H](COC(=O)c3ccccc3)[C@@H](OC(=O)c3ccccc3)[C@H](OC(=O)c3ccccc3)[C@H]2OC(=O)c2ccccc2)[C@H]1OC(C)C | - | VERO | African swine fever virus | EC50 | - | 20 µg/mL |
| CC12CC[C@H](OS(=O)(=O)O)CC1=CCC1C2CCC2(C)C(C(=O)COS(=O)(=O)O)CCC12 | IV4454 | VERO | Junin virus | inhibition | 40 µg/mL | 14% |
| Nc1ncnc2c1ncn2C[C@@H](CO)OCP(=O)(O)O | Isolate Bangladesh | VERO | Variola virus | EC50 | - | 12.6 µg/mL |
| CC(C)(O)c1ccc2c(c1)Sc1ccccc1O2 | TYPE 3 | BSC-1 | Poliovirus | inhibition | 0.4 µg/mL | 14% |
| CC(C)CCCC(COS(=O)(=O)O)C1CCC2C3CC=C4C[C@H](O)[C@@H](OS(=O)(=O)O)CC4(C)C3CCC12C | IV4454 | VERO | Junin virus | inhibition | 80 µg/mL | 8.7% |
| CC(=O)c1ccc2c(c1)Sc1ccccc1O2 | TYPE 3 | BSC-1 | Poliovirus | inhibition | 10 µg/mL | 100% |
| c1ccc(C2COc3ccccc3C2)cc1 | IB (TYPE 2) | HEP-2 | Poliovirus | EC50 | - | >10 µM |
| Nc1ccn([C@@H]2C=C(CO)[C@@H](O)[C@H]2O)c(=O)n1 | ZAIRE | - | Monkeypox virus | EC50 | - | 0.1 µg/mL |
| O=C(NS(=O)(=O)OC[C@H]1O[C@@H](n2ccc(=O)[nH]c2=O)[C@H](O)[C@@H]1O)O[C@H]1O[C@H](COC(=O)c2ccccc2)[C@@H](OC(=O)c2ccccc2)[C@H](OC(=O)c2ccccc2)[C@@H]1OC(=O)c1ccccc1 | - | VERO | African swine fever virus | EC50 | - | 25 µg/mL |
| Clc1ccc2c(c1)C=C(c1ccc(Br)cc1)CO2 | IB (TYPE 2) | HEP-2 | Poliovirus | EC50 | - | >10 µM |
| CC(=O)OC[C@H]1O[C@@H](n2ncc(=S)[nH]c2=S)C(OC(C)=O)C1OC(C)=O | Nakayama | VERO | Japanese encephalitis virus | EC50 | - | 245 µg/mL |
| O=c1cc(/C=C/c2ccccc2)c2ccc3occ(-c4ccc(-c5ccccc5)cc4)c3c2o1 | - | - | Japanese encephalitis virus | EC50 | - | 7.8 µg/mL |
| NC12CC3CC(CC(C3)C1)C2 | A2/ADACHI | CEF | Influenza A virus (H2N2) | inhibition | 4.7 µg/mL | 96.2% |
| Clc1ccc(C2=Cc3ccccc3OC2)cc1 | IA (TYPE 2) | HEP-2 | Poliovirus | EC50 | - | <10 µM |
| COC(C)c1ccc2c(c1)Sc1ccccc1O2 | TYPE 3 | BSC-1 | Poliovirus | inhibition | 2 µg/mL | 10% |
| O=C(NS(=O)(=O)OCCOCn1ccc(=O)[nH]c1=O)O[C@H]1O[C@H](COCc2ccccc2)[C@@H](OCc2ccccc2)[C@H](OCc2ccccc2)[C@H]1OCc1ccccc1 | - | VERO | African swine fever virus | EC50 | - | 25 µg/mL |
| NC(=O)c1[nH]nc([C@@H]2O[C@H](CO)[C@@H](O)[C@H]2O)c1O | Nakayama | VERO | Japanese encephalitis virus | EC50 | - | 0.65 µg/mL |
| CC12CC[C@H](OS(=O)(=O)O)CC1=CCC1C2CCC2(C)C(C(=O)CO)CCC12 | IV4454 | VERO | Junin virus | inhibition | 80 µg/mL | 13.1% |
| CCC(O)c1ccc2c(c1)Sc1ccccc1O2 | TYPE 3 | BSC-1 | Poliovirus | inhibition | 10 µg/mL | 100% |
| CC(C)=CCCC(CO)C1CCC2C3CC=C4C[C@H](O)[C@@H](O)CC4(C)C3CCC12C | IV4454 | VERO | Junin virus | inhibition | 80 µg/mL | 0% |
| C[C@@]1(O)[C@H](O)[C@@H](COP(=O)(O)OP(=O)(O)OP(=O)(O)O)O[C@H]1n1ccc2c(N)ncnc21 | - | VERO | Venezuelan equine encephalitis virus | EC50 | - | >320 µM |
| Nc1ccn(C[C@@H](CO)OCP(=O)(O)O)c(=O)n1 | Isolate V72-119 | VERO | Variola virus | EC50 | - | 10 µg/mL |
| CC(=O)c1ccc2c(c1)[S@@](=O)c1ccccc1O2 | TYPE 3 | BSC-1 | Poliovirus | inhibition | 10 µg/mL | 13% |